Anti-infective test results gathered from many reports (values: NIAID ChemDB through PubChem).

Common to all: tests in culture; species: HIV-1; method: MTT; read-out: EC50

Lines come from different laboratories, so protocols vary.

Oc1ccc(-c2nnc3sc(-c4cccs4)nn23)c(Cl)c1Cl ; cell line: MT-4 ; strain: IIIB ; result: >92.7 µg/mL
Cc1cc(/C=C/C#N)cc(C)c1Oc1nc(NC2CCN(Cc3cccnc3)CC2)nc2ccsc12 ; changes: NNRTI-resistant (RT F227L V106A) ; cell line: MT-4 ; strain: IIIB ; result: 0.00582 µM
COc1cc([C@@H]2Oc3cc([C@H]4Oc5cc(O)cc(O)c5C(=O)[C@@H]4O)ccc3O[C@H]2COP(=O)(O)OC[C@H]2O[C@@H](O[C@H]3[C@H](O)[C@@H](O)[C@@H](OC)O[C@@H]3CO)[C@H](O)[C@@H](O)[C@H]2O)ccc1O ; cell line: MT-4 ; strain: IIIB ; result: >130 µM
CCOCn1c(Cc2cc(OC)cc(OC)c2)c(CC)c(=O)[nH]c1=O ; changes: Y181C ; cell line: MT-4 ; strain: N119 ; result: 30.5 µM
CCc1c(Cl)nc(Nc2ccc(C#N)cc2)nc1Oc1ccc2ccccc2c1Cl ; changes: WT ; cell line: MT-4 ; strain: IIIB ; result: 0.129 µM
Cc1cc(C)c2c(c1)N[C@H](c1cccc([N+](=O)[O-])c1)C[C@@H]2N1CCCC1=O ; cell line: MT-2 ; strain: NL4-3 ; result: >50 µM
Cc1cc(C#N)cc(C)c1Oc1nc(NC2CCN(Cc3ccc(S(N)(=O)=O)cc3)CC2F)nc2ccsc12 ; changes: NNRTI-resistant (RT F227L V106A) ; cell line: MT-4 ; strain: IIIB ; result: 0.00873 µM
CCc1c(Cc2cc(C)cc(C)c2)n(COCCOc2ccccc2)c(=O)[nH]c1=O ; changes: K103N + Y181C ; cell line: MT-4 ; strain: A17 ; result: 6.5 µM
COc1cc([C@@H]2Oc3cc([C@H]4Oc5cc(O)cc(O)c5C(=O)[C@@H]4O)ccc3O[C@H]2COP(=O)(O)OC[C@H]2O[C@H](OC)[C@H](O)[C@@H](O)[C@@H]2O)ccc1O ; cell line: MT-4 ; strain: IIIB ; result: >160 µM
COc1ccc2c(c1)[C@@H](N1CCCC1=O)C[C@@H](c1cccc([N+](=O)[O-])c1)N2 ; cell line: MT-2 ; strain: NL4-3 ; result: >50 µM
Cc1c(Cl)nc(Nc2ccc(C#N)cc2)nc1Oc1ccc2ccccc2c1Br ; changes: WT ; cell line: MT-4 ; strain: IIIB ; result: 0.06 µM
Nc1cc(O)ccc1-c1n[nH]c(=S)n1N ; cell line: MT-4 ; strain: IIIB ; result: >12 µg/mL
Cc1cc(C#N)cc(C)c1Oc1nc(NC2CCN(Cc3ccc(S(N)(=O)=O)cc3)CC2)nc2sccc12 ; changes: NNRTI-resistant (RT Y188L) ; cell line: MT-4 ; strain: IIIB ; result: 0.00763 µM
CCc1c(NC)nc(Nc2ccc(C#N)cc2)nc1Oc1ccc2cc(Br)ccc2c1Br ; changes: WT ; cell line: MT-4 ; strain: IIIB ; result: 0.08 µM
C=C(C)[C@]1(O)C[C@@H](C)[C@@]2(O)[C@H]([C@H]1OC(=O)/C=C/C=C/CCCCC)[C@@H]1O[C@]1(CO)[C@@H](O)[C@]1(O)C(=O)C(C)=C[C@H]12 ; cell line: MT-4 ; strain: IIIB ; result: 0.01593 µM
O=C1CCCN1[C@H]1C[C@@H](c2cccc([N+](=O)[O-])c2)Nc2ccccc21 ; cell line: MT-2 ; strain: NL4-3 ; result: >50 µM
O=C1/C(=C\c2cccc([N+](=O)[O-])c2)N(CCc2cccs2)C(=S)N1CCc1cccs1 ; cell line: MT-4 ; strain: IIIB ; result: >100 µg/mL
N#Cc1ccc(-c2nc3ncc(Br)cc3[nH]2)cc1 ; cell line: MT-4 ; strain: IIIB ; result: >53 µM
Oc1ccc(-c2nnc3sc(-c4ccc(O)c(Cl)c4Cl)nn23)cc1Br ; cell line: MT-4 ; strain: IIIB ; result: >4.12 µg/mL
Cc1cc(/C=C/C#N)cc(C)c1Oc1nc(NC2CCN(Cc3ccccn3)CC2)nc2ccsc12 ; changes: NNRTI-resistant (RT K103N) ; cell line: MT-4 ; strain: IIIB ; result: 0.00533 µM
Cc1cc2nc(-c3cccc([N+](=O)[O-])c3)ccc2c(C)c1C ; cell line: MT-2 ; strain: NL4-3 ; result: >50 µM
CCN[C@H]1[C@@H](OC)O[C@H](COP(=O)(O)OC[C@@H]2Oc3ccc([C@H]4Oc5cc(O)cc(O)c5C(=O)[C@@H]4O)cc3O[C@H]2c2ccc(O)c(OC)c2)[C@@H](O)[C@@H]1O ; cell line: MT-4 ; strain: IIIB ; result: 73 µM
N#Cc1ccc(Nc2nccc(Oc3ccc4ccccc4c3)n2)cc1 ; changes: WT ; cell line: MT-4 ; strain: IIIB ; result: 0.01 µM
COc1cc(Cc2c(C(C)C)c(=O)[nH]c(=O)n2COCCOc2ccccc2)cc(OC)c1 ; changes: K103N + Y181C ; cell line: MT-4 ; strain: A17 ; result: >33 µM
CN(C)c1ccc(/C=C2\C(=O)N(CCc3cccs3)C(=S)N2CCc2cccs2)cc1 ; cell line: MT-4 ; strain: IIIB ; result: >34.3 µg/mL
Cc1cc(/C=C/C#N)cc(C)c1Oc1nc(NC2CCN(Cc3ccccc3Cl)CC2)nc2ccsc12 ; changes: NNRTI-resistant (RT L100I) ; cell line: MT-4 ; strain: IIIB ; result: 0.0304 µM
Clc1ccc(-c2nnc3sc(-c4cccs4)nn23)cc1Cl ; cell line: MT-4 ; strain: IIIB ; result: >92.7 µg/mL
CNc1nc(Nc2ccc(C#N)cc2)nc(Oc2ccc3ccccc3c2Br)c1C(C)C ; changes: WT ; cell line: MT-4 ; strain: IIIB ; result: 0.106 µM
Cc1ccccc1CN1CCC(Nc2nc(Oc3c(C)cc(/C=C/C#N)cc3C)c3sccc3n2)CC1 ; changes: NNRTI-resistant (RT K103N) ; cell line: MT-4 ; strain: IIIB ; result: 0.0248 µM
Nn1c(-c2ccc(Cl)c(Cl)c2)n[nH]c1=S ; cell line: MT-4 ; strain: IIIB ; result: >72.83 µg/mL
O=C1CCCN1[C@H]1C[C@@H](c2cccc([N+](=O)[O-])c2)Nc2ccc(I)cc21 ; cell line: MT-2 ; strain: NL4-3 ; result: >50 µM
O=C1/C(=C\c2ccc([N+](=O)[O-])cc2)N(CCc2cccs2)C(=S)N1CCc1cccs1 ; cell line: MT-4 ; strain: IIIB ; result: >85.1 µg/mL
Cc1cc(C)c2c(c1)N[C@H](c1cccc(N)c1)C[C@@H]2N1CCCC1=O ; cell line: MT-2 ; strain: NL4-3 ; result: 88.86 µM
Brc1cnc2nc(-c3ccoc3)[nH]c2c1 ; cell line: MT-4 ; strain: IIIB ; result: >20 µM
Nc1cccc([C@@H]2C[C@H](N3CCCC3=O)c3ccccc3N2)c1 ; cell line: MT-2 ; strain: NL4-3 ; result: >50 µM
O=C1/C(=C\c2cccc(Oc3ccc(-c4ccccc4)cc3)c2)N(CCc2cccs2)C(=S)N1CCc1cccs1 ; cell line: MT-4 ; strain: IIIB ; result: >81.95 µg/mL
COc1ccc2nc(-c3cccc([N+](=O)[O-])c3)ccc2c1 ; cell line: MT-2 ; strain: NL4-3 ; result: 87.86 µM
N#Cc1ccc(Nc2nccc(Oc3cc4ccc(Br)cc4cc3Br)n2)cc1 ; changes: K103N + Y181C ; cell line: MT-4 ; strain: IIIB ; result: >50.39 µM
Cc1c(C(C)c2c(F)cccc2F)nc(N(C)C)[nH]c1=O ; changes: K103N + Y181C ; cell line: MT-4 ; result: 90 µM
COc1ccc2nc(-c3cccc(N)c3)ccc2c1 ; cell line: MT-2 ; strain: NL4-3 ; result: 72.71 µM

ECn: concentration that inhibits the pathogen or its effect by n%.